In patent publication US20020061896A1, “Imidazopyrimidine nucleoside analogues with anti-HIV activity” (priority 1999, published 2002):

Tested on: HIV
Assay: Antiviral activity using T cells
Format: cell-based
Conditions: CC50/IC50
Experimental: HIV-1 infection assays with cell lines.
Laboratory strains of HIV-1, HIV-2, simian immunodeficiency virus, strains with know resistance to indicated drugs, or a low-passage (clinically derived) isolates are used to infect established cell lines by using a specific multiplicity of infection (MOI) of the virus for 1 hour at 37° C. prior to washing the cells and resuspension in medium containing increasing concentrations of drug (or test compound). At 4 to 6 days post-infection, drug-treated and control wells are analyzed for an HIV-1 induced cytopathic effect and/or for the presence of viral reverse transcriptase (RT) or viral p24 antigen in the culture medium (Buckheit and Swanstrom 1991; Ojwang et al. 1994, 1995a, Rando et al. 1995).

Structure (SMILES) | SI (HIV)
O=c1n([C@H]2CC[C@@H](CO)O2)ccc2nc(-c3ccc([N+](=O)[O-])cc3)cn12 [Compound 32, 2-(4- NITROPHENYL)-6-[(2R,5S)-5- HYDROXYMETHYLOXOLAN-2-YL]-5,6- DIHYDRO[1,3]-DIAZOLO[1,2-C][1,3]DIAZIN-5-ONE] | >14
O=c1n(C2CO[C@H](CO)O2)ccc2nc(-c3ccc(F)cc3)cn12 (stereo in doubt) [Compound 43, 2-(4-FLUOROPHENYL)-6-[(2S,4S)-2- HYDROXYMETHYL-1,3-DIOXOLAN-4-YL]- 5,6-DIHYDRO[1,3]DIAZOLO[1,2- C][1,3]DIAZIN-5-ONE] | >322
O=c1n([C@H]2CO[C@@H](CO)O2)ccc2nc(-c3ccc([N+](=O)[O-])cc3)cn12 [Compound 46, 2-(4-NITROPHENYL)-6-[(2R,4R)-2- HYDROXYMETHYL-1,3-DIOXOLAN-4-YL]- 5,6-DIHYDRO[1,3]DIAZOLO[1,2- C][1,3]DIAZIN-5-ONE] | >1000
O=c1n([C@H]2CO[C@H](CO)O2)ccc2nc(-c3ccc([N+](=O)[O-])cc3)cn12 [Compound 53] | >25
O=c1n([C@H]2CO[C@@H](CO)O2)ccc2nc(-c3ccc(F)cc3)cn12 [Compound 44, 2-(4-FLUOROPHENYL)-6-[(2R,4R)-2- HYDROXYMETHYL-1,3-DIOXOLAN-4-YL]- 5,6-DIHYDRO[1,3]DIAZOLO[1,2- C][1,3]DIAZIN-5-ONE] | >31250
O=c1n([C@@H]2CC[C@H](CO)O2)cc(F)c2nc(-c3ccc(F)cc3)cn12 [Compound 33, 8-FLUORO-2-(4-FLUOROPHENYL)-6- [(5R,2S)-5-HYDROXYMETHYL OXOLAN- 2-YL]-5,6-DIHYDRO[1,3]DIAZOLO[1,2- C][1,3]DIAZIN-5-ONE] | 22.5
O=c1n([C@H]2CC[C@@H](CO)O2)cc(F)c2nc(-c3ccc([N+](=O)[O-])cc3)cn12 [Compound 36, 8-FLUORO-2-(4-NITROPHENYL)-6- [(2R,5S)-5-HYDROXYMETHYL OXOLAN- 2-YL]-5,6-DIHYDRO[1,3]-DIAZOLO[1,2- C][1,3]DIAZIN-5-ONE] | >100
O=c1n([C@@H]2CC[C@H](CO)O2)ccc2nc(-c3ccc([N+](=O)[O-])cc3)cn12 [Compound 31, 6-[(2S,5R)-5-HYDROXYMETHYL OXOLAN-2-YL]-2-(4-NITROPHENYL)-5,6- DIHYDRO[1,3]-DIAZOLO[1,2-C][1,3]DIAZIN-5-ONE] | 4.6
O=c1n([C@H]2CO[C@H](CO)O2)cc(F)c2nc(-c3ccc(F)cc3)cn12 [Compound 55] | >2.1
O=c1n([C@@H]2CO[C@@H](CO)O2)cc(F)c2nc(-c3ccc([N+](=O)[O-])cc3)cn12 [Compound 58] | >1.6
O=c1n([C@@H]2CO[C@H](CO)O2)ccc2nc(-c3ccc([N+](=O)[O-])cc3)cn12 [Compound 45, L2-(4-NITROPHENYL)-6-[(2S,4S)-2- HYDROXYMETHYL-1,3-DIOXOLAN-4-YL]- 5,6-DIHYDRO[1,3]DIAZOLO[1,2- C][1,3]DIAZIN-5-ONE] | 40
